According to the supplement of paper PMC9931576:
Human monoclonal antibodies against the spike receptor-binding domain (heavy:light variable regions). IC50 against pseudoviruses bearing the spike of naturally observed variants; lower = stronger; >10 µg/ml means not reached at the top dose. No active / inactive call. The stated detection limit is 0.0005 µg/ml; values near or below 0.001 µg/ml lie at the floor of the assay.

B1: BD-508 (protein)
chain 1: EVQLVESGGGLVQPGGSLRLSCAASGFIVSSNYMTWVRQAPGKGLEWVSVIYSGGSTFYADSVKGRFTISRHNSKNTLFLQMNSLRAEDTAVYYCARDAQNYGMDVWGQGTTVTVSS
chain 2: DIQMTQSPSSLSASVGDRVTITCRASQSISSYLNWYQQKPGKAPKLLIFAASSLQTGAPSRFSGSGSGTDFTLTISSLQPEDFATYYCQQSYSTPPYTFGQGTKLEIK
B2: BD55-6274 (protein)
chain 1: QVQLVQSGAEVKKPGASVKVSCKASGYTFTSYGITWVRQAPGQGLEWMGWIAAYSGHTNYAQKLQDRFTMTRDTSTTTVYMELRSLRSDDTAVYYCARRSGYSGYDREHGKSPGDYFYMDVWGKGTTVTVSS
chain 2: SYELTQPPSVSVSPGQTARITCSGDALPQKYAYWYQQKSGQAPVLVIYEDTKRPSGIPERFSGSKSGTMATLTISGAQVEDEADYYCYSTYSSADRGVFGGGTALTVL
B3: BD55-6275 (protein)
chain 1: QITLKESGPTLVKPTQTLTLTCTFSGFSLTTDAVAVGWIRQPPGKALEWLALVYWDDDKRYSPSLKNRLTITKDTSKNQVVLTMTNMGPVDTGTYYCAHFQDRVGATRVCVFDSWGQGTLVTVSS
chain 2: QSVLTQPPSVSEAPRQRVTISCSGSSSNIGNNVVSWYQQLPGKAPKLLIYYDDRLPSGVSDRFSGSKSGTSASLAISGLQSEDEADYYCATWDDSLNGVVLGGGTKLTVL
B4: BD55-6277 (protein)
chain 1: QVQLVESGGGVVQPGRSLRLSCAASGFTFSNFGMHWVRQAPGKGLEWLSVIWNDGSNKYYTESVKGRFTVSRDNSKNMLYLQINDLRAEDTAVYYCARDSPCSGPTCYFDYNWFDYWGQGTLVTVSS
chain 2: EIALTQSPGTLSLSPGERAVLSCRASQSVSRNLAWYQQKPGQAPRLLIYDASNRATGIPARFSGSGSGTDFILTISSLEPEDFAVYYCQQRHTWPPAYTFGQGTKLEIK
B5: BD55-6278 (protein)
chain 1: QPQLQESGPGLVRPSETVSLTCSVSGGSIGSRSFFWGWIRQPPGKGLEWIGSIYSGGSTSYNPSLNSRATISADTSKNQFSLKLSSVTAADTAVYYCARYGGGDPYFDTWGQGTLVTVSS
chain 2: DIQMTQSPSTLSASVGDRVTITCRASQSVSRWLAWYQQKPGKAPKLLIYMASILESGVPSRFSGSGSGTEFTLIISSLQPDDFATYYCQQYNSESYTFGQGTKLEIK
B6: BD55-6282 (protein)
chain 1: QVQLVQSGAEVKKPGSSVKVSCKASGGIFSNDAFSWVRQAPGQGLEWMGGILPIFHRPNYAQKFQGRLTITADESTSTAYMELSSLRFEDTAIYYCARDQGSIAVAYDAFDVWGQGTMVTVSS
chain 2: QSVLTQPPSASGTPGQMVTISCSGSSSNIGSNHVYWYQQLPGTAPKLLMDRNNQRPSGVPDRFSGSKSGTSASLAISGLRSEDEADYYCAAWDDSLSGPVFGGGTKLTVL
B7: BD55-6288 (protein)
chain 1: QVQLQESGPGLVKPSGTLSLTCAVSGGSISSSSWWSWVRQPPGKGLEWIGEMYHSGSTNYNPSLKSRVTISVDRSKNHFSLKLTSVTAADTAVYYCARTTYYFDSSDSHLNSNPYYFDSWGQGTLVTVSS
chain 2: QSVLTQPPSVSGAPGQRVTISCTGSSSNIGAGYDVHWYRQLPGTAPKLLIYGNTNRPSGVPDRFSGSQSGTSASLAITGLQAEDEGNYYCQSYDNSLSGFYVFGGGTKLTVL
B8: BD55-6291 (protein)
chain 1: EVQLLESGGGLVQPGGSLRLSCAASGFIFNNYAMSWVRQAPGKGLEWVSDINDSGSRTDYADSVKGRFTISRDNSKNTLYLQMRSLRAEDTAIYYCAKDPSPTYYYDFTRFDNWGQGTLVTVSS
chain 2: DVVLTQSPLSLPVTLGQPASISCRSSQNLVYADGDTYLNWFQQRPGQSPRRLIYKVSNRDSGVPDRFSGSGSGTDFTLEISRVEAEDVGVYYCMQGSHWPPTFGGGTKVEIK
B9: BD55-6294 (protein)
chain 1: QVQLQQWGAGLLKPSETLSLTCAVYGGSFSGYFWAWIRQPPGKGLEWIGEINHSGSTNYNPSLKSRVTISADTSESQFSLKVSSVTAADTAMYYCARVGRGYSAYDYYYYYYMDVWGKGTTVTVSS
chain 2: DVQMTQSPSSLSASVGDRVTITCRASHNITRYLNWYQQKPGRAPNLLIYAASSLQSGVPSRFSGSGSGTDFTLTISSLRPEDFATYYCQLSYSPNTFGQGTKLEIK
B10: BD55-6295 (protein)
chain 1: EVQLVESGGGLVQPGGSLRLSCAASGFTFTSYWMSWVRQSPGKGLEWVANINHDGNDRYYVDSVKGRFTISRDNAKNSLFLQMNSLRAQDTAVYYCARAPELEHQLLPPEYFQHWGQGTLVTVSS
chain 2: SYELTQPPSVSVSPRQTARLTCSGKRLAMQYTHWYQQKPGQAPLLLIYKDRERPSGIPERFSGSSSGTTATLTISGVQAEDEADYYCQSADSSATSFVFGTGTKVTVL
B11: BD55-6297 (protein)
chain 1: QITLKESGPTLVKPTQTLTLTCTFVGFSLSTSGVGVGWIRQPPGKALEWLALIYWNDDKYYSPSLKSRLTITKDTSENQVVLTMTNVDPVDTATYFCAHTMLFVYGDFDHWGQGTLVTVSS
chain 2: QSALTQPASVSGSPGQSITISCTGVSSDVDDYTYVSWYQQHPGKAPKLMIYDVSNRPSGVSDRFSGSKSGNTASLTISGLQAEDEAEYYCSSYTSTTTSRVFGGGTKLTVL
B12: BD55-6298 (protein)
chain 1: EVQLVESGGGLVQPGGSLRLSCAASGFTFSSYDMHWVRQSTGKGLEWVSVIGTTGDTYYPDSVKGRFTISRENAKNSLYLQMNSLRAGDTAVYYCVRVGYSYGLRYWYLDLWGRGTLVTVSS
chain 2: DIQMTQSPSSLSASVGDRVTITCRASQTVSRYLNWYQQKPGKPPQLLIYAASSLQSGVPSRFSGSGSGTDFTLTISSLQPEDYATYYCQQSYTSPMYTFGQGTKLEIK

How the values were obtained:
Assay in all cases: pseudovirus neutralization IC50; higher = weaker neutralization
[1] = target: SARS-CoV-2 Omicron BA.1 spike pseudovirus
Procedure: (§1)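 Single-round VSV luciferase pseudovirus mixed with antibody dilutions for 1 h and put on Huh-7 cells for about a day; IC50 from the dose curve.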

[2] = target: SARS-CoV-2 Omicron BA.2 spike pseudovirus
Procedure: as §1

[3] = target: SARS-CoV-2 Omicron BA.2.75 spike pseudovirus
Procedure: as §1

[4] = target: SARS-CoV-2 Omicron BA.5 spike pseudovirus
Procedure: as §1

[5] = target: SARS-CoV-2 Omicron BQ.1.1 spike pseudovirus
Procedure: as §1

[6] = target: SARS-CoV-2 Omicron XBB spike pseudovirus
Procedure: as §1

[7] = target: SARS-CoV-2 early D614G spike pseudovirus
Procedure: as §1

| Binder | pseudovirus neutralization IC50 [1] | pseudovirus neutralization IC50 [2] | pseudovirus neutralization IC50 [3] | pseudovirus neutralization IC50 [4] | pseudovirus neutralization IC50 [5] | pseudovirus neutralization IC50 [6] | pseudovirus neutralization IC50 [7] |
| --- | --- | --- | --- | --- | --- | --- | --- |
| B1 | > 10 µg/mL | > 10 µg/mL | > 10 µg/mL | > 10 µg/mL | > 10 µg/mL | > 10 µg/mL | 0.0271 µg/mL |
| B2 | > 10 µg/mL | > 10 µg/mL | > 10 µg/mL | > 10 µg/mL | > 10 µg/mL | > 10 µg/mL | > 10 µg/mL |
| B3 | > 10 µg/mL | > 10 µg/mL | > 10 µg/mL | > 10 µg/mL | > 10 µg/mL | > 10 µg/mL | > 10 µg/mL |
| B4 | 6.49 µg/mL | 9.23 µg/mL | 5.01 µg/mL | 2.81 µg/mL | 3.86 µg/mL | 3.47 µg/mL | 2.17 µg/mL |
| B5 | > 10 µg/mL | > 10 µg/mL | > 10 µg/mL | > 10 µg/mL | > 10 µg/mL | > 10 µg/mL | > 10 µg/mL |
| B6 | 7.14 µg/mL | > 10 µg/mL | > 10 µg/mL | > 10 µg/mL | > 10 µg/mL | > 10 µg/mL | 0.0134 µg/mL |
| B7 | > 10 µg/mL | > 10 µg/mL | > 10 µg/mL | > 10 µg/mL | > 10 µg/mL | > 10 µg/mL | > 10 µg/mL |
| B8 | > 10 µg/mL | > 10 µg/mL | > 10 µg/mL | > 10 µg/mL | > 10 µg/mL | > 10 µg/mL | > 10 µg/mL |
| B9 | > 10 µg/mL | > 10 µg/mL | > 10 µg/mL | > 10 µg/mL | > 10 µg/mL | > 10 µg/mL | > 10 µg/mL |
| B10 | > 10 µg/mL | > 10 µg/mL | > 10 µg/mL | > 10 µg/mL | > 10 µg/mL | > 10 µg/mL | > 10 µg/mL |
| B11 | > 10 µg/mL | > 10 µg/mL | > 10 µg/mL | > 10 µg/mL | > 10 µg/mL | > 10 µg/mL | > 10 µg/mL |
| B12 | > 10 µg/mL | > 10 µg/mL | > 10 µg/mL | > 10 µg/mL | > 10 µg/mL | > 10 µg/mL | > 10 µg/mL |
